Assay [1] concerns PBTZ169-resistant strain of M. tuberculosis. Nature of the assay: MIC against PBTZ169-resistant strain. The class given is cell-based.
Assay [2] concerns M. bovis BCG Pasteur strain transformed with pMV261. As to the kind of experiment: MIC against M. bovis BCG Pasteur transformed with empty pMV261 (wild type).
In assay [3] the test system is drug-resistant tuberculosis strains. Nature of the assay: MIC against drug-resistant tuberculosis strains (pooled in abstract). The conditions noted are these: range over the named compounds and strains.
Assay [4] deals with M. bovis BCG Pasteur transformed with pMV261:Mt-dprE1. Nature of the assay: MIC against M. bovis BCG Pasteur overexpressing Mt-DprE1. The class given is cell-based, Mycobacterium bovis. The conditions noted are these: ratio of MIC against DprE1-overexpressing strain and wild-type strain.
The test system of assay [5] is Vero cells. Nature of the assay: Cytotoxicity assay in Vero cells (MTT). The class given is cell-based. The conditions noted are these: selectivity index, IC50/MIC.
For assay [6], the system named is bedaquiline-resistant strain of M. tuberculosis. Nature of the assay: MIC against bedaquiline-resistant strain. The class given is cell-based.

Structures are written as SMILES. Converted amounts (≈) assume the structure as drawn.

Take `CCOC(=O)NC(=O)c1ccsc1NC(=O)c1ccc(C(=O)N2CCCCC2)cc1` [Compound 23j, Ethyl (2-(4-(Piperidine-1-carbonyl)benzamido)thiophene-3-carbonyl)carbamate]: the “MIC PBTZ169-resistant strain” value in assay [1] is 0.14 µg/mL (≈ 0.326 µM). This compound also yielded an MICWT in assay [2] of 0.32 µg/mL. Further, the “MIC drug-resistant tuberculosis strains” value in assay [3] fell in the range of 0.031 to 0.24 µg/mL.
`CCOC(=O)NC(=O)c1ccsc1NC(=O)c1ccc(C(=O)N2CCCCC2)c(F)c1` [Compound 24f, Ethyl (2-(3-Fluoro-4-(piperidine-1-carbonyl)benzamido)thiophene-3-carbonyl)carbamate]: in assay [1], the “MIC PBTZ169-resistant strain” value is 0.062 µg/mL (≈ 0.139 µM). The MIC foldshift in assay [4] is reported as >8. This compound also had an MICWT in assay [2] of 0.064 µg/mL. Besides, the “MIC drug-resistant tuberculosis strains” value in assay [3] lay within 0.031 to 0.24 µg/mL. The SI in assay [5] is recorded as >4000. In assay [6], this compound displayed an MIC bedaquiline-resistant strain of 0.054 µg/mL (≈ 0.121 µM).
In the case of `CCOC(=O)NC(=O)c1ccsc1NC(=O)c1ccc(C(=O)N2CCCCC2)s1` [Compound 24j, Ethyl (2-(5-(Piperidine-1-carbonyl)thiophene-2-carboxamido)thiophene-3-carbonyl)carbamate], the MIC foldshift in assay [4] was 32. In assay [2], this compound displayed an MICWT of 0.28 µg/mL. The SI in assay [5] is on record as >457.
Turning to `COC(=O)NC(=O)c1ccsc1NC(=O)c1ccc(C(=O)N2CCCCC2)cc1` [Compound 25a, Methyl (2-(4-(Piperidine-1-carbonyl)benzamido)thiophene-3-carbonyl)carbamate], in assay [1], the “MIC PBTZ169-resistant strain” value was 0.48 µg/mL (≈ 1.16 µM). In assay [2], the MICWT was found to be 0.76 µg/mL. Also, in assay [3], the “MIC drug-resistant tuberculosis strains” value fell in the range of 0.031 to 0.24 µg/mL.
In turn, `COC(=O)NC(=O)c1ccsc1NC(=O)c1ccc(C(=O)N2CCCCC2)c(F)c1` [Compound 25b, Methyl (2-(3-Fluoro-4-(piperidine-1-carbonyl)benzamido)thiophene-3-carbonyl)carbamate] registered an MICWT in assay [2] of 0.12 µg/mL. In addition, the “MIC drug-resistant tuberculosis strains” value in assay [3] lay within 0.031 to 0.24 µg/mL.
`O=C(Nc1sccc1C(=O)Nc1nccc(C(F)(F)F)n1)c1ccc(C(=O)N2CCCCC2)cc1` [Compound 25l, 2-(4-(Piperidine-1-carbonyl)benzamido)-N-(4-(trifluoromethyl)pyrimidin-2-yl)thiophene-3-carboxamide]: the MIC foldshift in assay [4] was determined as 8. This compound came in with an MICWT in assay [2] of 1.60 µg/mL. Moreover, the SI in assay [5] is given as >320.
For `CCOC(=O)NC(=O)c1ccsc1NC(=O)c1nc2ccccc2s1` [TCA1, reference compound], the “MIC PBTZ169-resistant strain” value in assay [1] turned out to be 1.23 µg/mL (≈ 3.28 µM). The compound also came in with an MICWT in assay [2] of 0.48 µg/mL.

The record behind these values is paper PMC8154581, “Discovery of Novel Thiophene-arylamide Derivatives as DprE1 Inhibitors with Potent Antimycobacterial Activities” (Journal of Medicinal Chemistry, 2021).
